Measurements: paper PMC12389581, “Inhibition of Human Coronavirus 229E by Lactoferrin-Derived Peptidomimetics” (Pharmaceutics, 2025)
Where “and” joins values, the source holds several entries; their conditions need not be identical. Identical values can stand only once. Non-standard residues stand in square brackets, D forms with d. Residues, ends and D or L forms follow the SMILES beside them. NMeH = CN[C@@H](Cc1c[nH]cn1)C(=O)O

System: 229E Coronavirus

For CC(=O)N[C@@H](CO)C(=O)N[C@@H](CCCCN)C(=O)N(C)[C@@H](Cc1c[nH]cn1)C(=O)N[C@@H](CO)C(N)=O [Compound 3, SK(N-Me)HS] (Ac-SK[NMeH]S-NH2), the “fold higher potency than natural lactoferrin-derived peptides” value (compared with peptides of IC50 > 1 µM) was “over 10^3 fold” and the SI (ratio of CC50 (typically > 25 μM) to EC50, 229E coronavirus) was > 10^5 and >8 × 10^5.
